Reference: patent publication US9771361B2, “Inhibitors of influenza viruses replication” (priority 2013, dated 2017)

Test system: influenza A/Wisconsin/67/2005 (H3N2) challenge strain virus
Set-up: species or system humans
Conditions: human, in vivo

## O=C(O)[C@H]1C2CCC(CC2)C1Nc1nc(-c2c[nH]c3ncc(F)cc23)ncc1F (stereo partly shown) [Compound (1)]
  Serology, Sero-conversion n/N: 11/16 and 9/19 and 13/19 and 12/18 and 45/72

Values joined by “and” are separate entries in the source; they are usually repeats but may differ in a detail not shown here. Equal values may be shown once. No dose or concentration is given here for some results.
